Anti-infective test results gathered from many reports (values: NIAID ChemDB through PubChem).

Common to all: toxicity to cultured cells; cell line: HepG2.117; measure: CC50

Rows are shuffled and stem from different studies. CCn: concentration that lowers growth or viability of the cells by n%. An empty or dashed field is not shown.

structure,read by,value
C=C[C@H](C)Nc1nc2c(c(=O)n1-c1ccc(C(=O)N(C)C(=O)O[C@H](C)OC(=O)[C@@H](N)C(C)C)cc1)C[C@@H](C)N(C(=O)c1ccc(Br)c(C(F)(F)F)c1)C2,luminescence,>50 µM
Cc1cc(C)n(-c2nc3c(c(=O)n2-c2ncc(N)cn2)C[C@@H](C)N(C(=O)c2ccc(Br)c(C(F)(F)F)c2)C3)n1,luminescence,>0.5 µM
CC(=O)Nc1ccc([C@H](C)N2CCn3nc4c(c3C2=O)CN(C(=O)c2ccc(Cl)c(C(F)(F)F)c2)[C@H](C)C4)cc1,luminescence,19.3 µM
O=C(c1ccc(Cl)c(Cl)c1)N1CCc2nn3c(c2C1)-c1nccn1CCC3,luminescence,>50 µM
C=C[C@H](C)Nc1nc2c(c(=O)n1-c1ccc(C(=O)N(C)C(=O)OCOC(=O)/C=C/C(=O)O)cc1)C[C@@H](C)N(C(=O)c1ccc(Br)c(C(F)(F)F)c1)C2,-,>50 µM
CNC(=O)c1ccc(-n2c(-n3nc(C)cc3C)nc3c(c2=O)C[C@@H](C)N(C(=O)c2ccc(Br)c(C(F)(F)F)c2)C3)cn1,luminescence,>0.5 µM
CC(=O)Nc1cccc([C@H](C)N2CCn3nc4c(c3C2=O)CN(C(=O)c2ccc(Cl)c(Cl)c2)[C@H](C)C4)c1,luminescence,36.2 µM
CNC(=O)c1ccc(-n2c([C@@H]3CCCN3C(C)C)nc3c(c2=O)C[C@@H](C)N(C(=O)c2ccc(Br)c(C(F)(F)F)c2)C3)cc1,luminescence,>50 µM
C=C[C@H](C)Nc1nc2c(c(=O)n1-c1ccc(C(=O)N(C)C(=O)O[C@@H](OC(=O)[C@@H](N)C(C)C)C(C)C)cc1)C[C@@H](C)N(C(=O)c1ccc(Br)c(C(F)(F)F)c1)C2,luminescence,>50 µM
C[C@@H]1Cc2nn3c(c2CN1C(=O)c1ccc(Cl)c(C#N)c1)C(=O)N(Cc1ccc2ncoc2c1)CC3,luminescence,>50 µM
Cc1cc(C)n(-c2nc3c(c(=O)n2-c2ccc4c(ncn4C)n2)C[C@@H](C)N(C(=O)c2ccc(Br)c(C(F)(F)F)c2)C3)n1,luminescence,>0.5 µM
C[C@@H]1Cc2nn3c(c2CN1C(=O)c1ccc(Cl)c(C#N)c1)C(=O)N([C@@H](C)c1cccc(C(F)(F)F)c1)CC3,luminescence,>50 µM
CC(=O)Nc1ccc([C@@H](C)N2CCn3nc4c(c3C2=O)CN(C(=O)c2ccc(Cl)c(Cl)c2)[C@H](C)C4)cc1,luminescence,>50 µM
COc1ccc(-n2c(-c3ccccc3)nc3c(c2=O)C[C@@H](C)N(C(=O)c2ccc(Br)c(C(F)(F)F)c2)C3)cc1,luminescence,>0.5 µM
C[C@@H]1Cc2nn3c(c2CN1C(=O)c1ccc(Cl)c(C#N)c1)C(=O)N([C@@H](C)c1cccc(NS(C)(=O)=O)c1)CC3,luminescence,19.7 µM
C[C@@H]1Cc2nn3c(c2CN1C(=O)c1ccc(Cl)c(C#N)c1)C(=O)N([C@@H](C)c1ccnc(C(F)(F)F)c1)CC3,luminescence,>50 µM
CC(=O)Nc1cccc([C@@H](C)N2CCn3cc4c(c3C2=O)CN(C(=O)c2ccc(Cl)c(C#N)c2)[C@H](C)C4)c1,luminescence,>50 µM
Cc1cc(C)n(-c2nc3c(c(=O)n2-c2ccc(O)cc2)C[C@@H](C)N(C(=O)c2ccc(Br)c(C(F)(F)F)c2)C3)n1,luminescence,>0.5 µM
C[C@@H]1Cc2nn3c(c2CN1C(=O)c1ccc(Br)c(C#N)c1)C(=O)N([C@@H](C)c1ccc(OC(F)(F)F)cc1)CC3,luminescence,49.6 µM
Cc1cc(C)n(-c2nc3c(c(=O)n2-c2ccc(NC[C@H](O)CO)nc2)C[C@@H](C)N(C(=O)c2ccc(Br)c(C(F)(F)F)c2)C3)n1,luminescence,>0.5 µM
C=C[C@H](C)Nc1nc2c(c(=O)n1-c1ccc(C(=O)NC)cc1)C[C@@H](C)N(C(=O)c1ccc(Br)c(C(F)(F)F)c1)C2,luminescence,46.8 µM

2 of the rows above, restated:

structure | read by | value
C[C@@H]1Cc2nn3c(c2CN1C(=O)c1ccc(Cl)c(C#N)c1)C(=O)N([C@@H](C)c1cccc(NS(C)(=O)=O)c1)CC3 | luminescence | 19.7 µM
C[C@@H]1Cc2nn3c(c2CN1C(=O)c1ccc(Cl)c(C#N)c1)C(=O)N([C@@H](C)c1cccc(C(F)(F)F)c1)CC3 | luminescence | >50 µM